A mixed list of measured activities; the numbers were collected in NIAID ChemDB.

Shared fields: target-level tests; species: Hepatitis C virus

Neighbouring rows are from separate reports. Percent inhibition refers to the dose given; in toxicity tests it is the harm to the cells. a–b is a range or a potency band. ICn: concentration for n% inhibition. An empty or dashed field is not shown.

structure | dose | measure | protein | value
O=C(O)c1ccc2c(c1)nc(-c1ccc3nccc(NCCCCO)c3c1)n2C1CCCCC1 | 100 µM | inhibition | NS5B polymerase | 92.05%
O=C(Nc1nn[nH]n1)c1cnn2c(C3CCCCC3)c(-c3ccc(F)cc3)cnc12 |  | IC50 | RNA-dependent RNA polymerase | 1–10 µM
CNC(=O)c1c(-c2ccc(F)cc2)oc2cc(-c3c(C)noc3C)c(OCc3nccs3)cc12 |  | IC50 | Nonstructural protein 5B | ≤0.5 µM
O=C(O)c1cc2nc(-c3cccc(Cl)c3)cc(-c3ccsc3)n2n1 |  | IC50 | RNA-dependent RNA polymerase | >10 µM
CNC(=O)c1c(-c2ccc(F)cc2)oc2cc(N(C)S(C)(=O)=O)c(OCc3ccncc3)cc12 |  | IC50 | Nonstructural protein 5B | ≤0.5 µM
c1cc(-c2cnc3c(-c4nn[nH]n4)cnn3c2C2CCCCC2)ccc1OC1CCCCC1 |  | IC50 | RNA-dependent RNA polymerase | <1 µM
O=C(O)c1ccc2c(c1)nc(-c1ccc3nc(-c4cc(OCC(=O)N5CCCC5)ccc4-c4ccccc4)ccc3c1)n2C1CCCCC1 | 100 µM | inhibition | NS5B polymerase | 97.86%
O=C(N[C@@H](C(=O)O)C1CCCCC1)c1cnn2c(C3CCCCC3)c(-c3ccc(F)cc3)cnc12 |  | IC50 | RNA-dependent RNA polymerase | 1–10 µM
COc1ccc(Br)cc1COC(=O)Nc1ccsc1-c1nc(C(=O)O)c(O)c(=O)[nH]1 |  | IC50 | HCV polymerase | <25 µM
CNC(=O)c1c(-c2ccc(F)cc2)oc2cc(N(C)C)c(OC)cc12 |  | IC50 | Nonstructural protein 5B | ≤0.5 µM
O=C(O)c1ccc2c(c1)nc(-c1ccc3nc(-c4ccccc4[N+](=O)[O-])ccc3c1)n2C1CCCCC1 | 33 µM | inhibition | NS5B polymerase | 96.61%
O=C(Nc1cscc1-c1nc(C(=O)O)c(O)c(=O)[nH]1)NS(=O)(=O)c1ccccc1Br |  | IC50 | HCV polymerase | <25 µM
COc1cc(O)c(-c2ccc3cc(-c4nc5cc(C(=O)O)ccc5n4C4CCCCC4)ccc3n2)c(OC)c1 | 33 µM | inhibition | NS5B polymerase | 102%
CNC(=O)c1c(-c2ccc(F)cc2)oc2cc(N(C)S(C)(=O)=O)c(OCc3nccs3)cc12 |  | IC50 | Nonstructural protein 5B | ≤0.5 µM
O=C(NCc1ccccc1F)Nc1ccsc1-c1nc(C(=O)O)c(O)c(=O)[nH]1 |  | IC50 | HCV polymerase | <25 µM
COc1ccc(-c2cccc(C(=O)O)c2)c(-c2ccc3cc(-c4nc5cc(C(=O)O)ccc5n4C4CCCCC4)ccc3n2)c1 | 33 µM | inhibition | NS5B polymerase | 100%
CCc1cc2cc(-c3cnc4cc(C(=O)O)nn4c3C3CCCCC3)ccc2o1 |  | IC50 | RNA-dependent RNA polymerase | 1–10 µM
O=C(NCCCc1ccccc1)Nc1ccccc1-c1nc(C(=O)O)c(O)c(=O)[nH]1 |  | IC50 | HCV polymerase | <100 µM
O=C(O)c1ccc2c(c1)nc(-c1ccc3nc(-c4cc(O)ccc4-c4ccc(Cl)cc4)ccc3c1)n2C1CCCCC1 | 33 µM | inhibition | NS5B polymerase | 101%
O=C(O)c1nc(-c2cccc(Cl)c2)[nH]c(=O)c1O |  | IC50 | HCV polymerase | <100 µM
O=C(O)c1cc2nc(-c3ccc(OCc4cccc(C(F)(F)F)c4)c(F)c3)c(C3CCCCC3)c(=O)n2[nH]1 |  | IC50 | RNA-dependent RNA polymerase | 1–10 µM
CC(C)c1ccc(NC(=O)Nc2cccc(-c3nc(C(=O)O)c(O)c(=O)[nH]3)c2)cc1 |  | IC50 | HCV polymerase | <100 µM
Nc1c(Cl)cc(-c2ccc3cc(-c4nc5cc(C(=O)O)ccc5n4C4CCCCC4)ccc3n2)cc1Cl | 33 µM | inhibition | NS5B polymerase | 98.36%
O=C(O)c1cc2nc(-c3cccc(F)c3)c(C3CCCCC3)c(=O)n2[nH]1 |  | IC50 | RNA-dependent RNA polymerase | <1 µM
O=C(O)c1cnc2c(c1)nc(-c1ccc3nc(-c4ccccc4-c4ccc(Cl)cc4)ccc3c1)n2C1CCCCC1 | 100 µM | inhibition | NS5B polymerase | 94.33%
O=C(O)c1cc2nc(-c3ccc(C(F)(F)F)cc3)cc(-c3ccccc3OCc3ccccc3)n2n1 |  | IC50 | RNA-dependent RNA polymerase | 1–10 µM
O=C(OCc1cccc2ccccc12)c1nc(-c2cccs2)[nH]c(=O)c1O |  | IC50 | HCV polymerase | <50 µM

2 of the rows above, restated:

structure	dose	measure	protein	value
O=C(O)c1cc2nc(-c3ccc(C(F)(F)F)cc3)cc(-c3ccccc3OCc3ccccc3)n2n1		IC50	RNA-dependent RNA polymerase	1–10 µM
COc1ccc(Br)cc1COC(=O)Nc1ccsc1-c1nc(C(=O)O)c(O)c(=O)[nH]1		IC50	HCV polymerase	<25 µM